Patent US20230303664A1 (MAX PLANCK GESELLSCHAFT ZUR F RDERUNG DER WISSENSCHAFTEN E V, published 2023)
Substitutions are numbered along the chain they refer to.

B1: Re9C07 (VHH)
VHH: QVQLVESGGGLVQAGGSLRLSCAASGRTFSRYAMGWFRQAPGKEREFVAAITWNADTTYYADSVKGRFTISRDNAKNTVYLQMNSLKPEDTAVYYCAAGGNHYYSRSYYSSLEYDHWGQGTQVTVSS
B2: Re9G05 (VHH)
VHH: QVQLVESGGGLVQPGGSLRLSCAVSGNISSITAWDWHRQAPGKQRELVAHITSRGDTMYLDSVKGRFAISRDHAKNTLSLQMNSLKPEDTAVYYCYLRTFGPPYDYWGQGTQVTVSS
B3: Re9G12 (VHH)
VHH: QVQLVESGGGLVQAGGSLRLSCAASGRTFSSYVMGWFRQAPGKEREFVAHISWSGDSTYYADSVKGRFTIFRDNAKNTAYLQMNSLKPEDTAVYYCAADRGASYYYTWASEYNYWGQGTQVTVSS
B4: Re11E11 (VHH)
VHH: QVQLVESGGGSVEAGGSLRLSCAASGRTFNNYNIVWFRQAPGKEREFVAAINWNGGSTSYANSVKGRFAVSRDNAKNTVYLQMNNLKHEDTAEYLCYTVGPEGDYWGQGTQVTVSS
B5: Re6D09 (VHH)
VHH: B4 VHH with I34M, N62A, R72I, V79L
B6: Re11C10 (VHH)
VHH: B4 VHH with F29L, N30D, I34A, G56S, S57N, A61G
B7: Re5C01 (VHH)
VHH: QVQLVESGGGLVQAGGSLRLSCGVSGRTFSSYAMGWFRQAPGKEREFVATISWSGGTTNYAHSVKGRFTISRDNAKNTVYLQMNSLKVEDTAVYYCYAVSSGSDYDGGMDYWGKGTQVTVSS
B8: Re11F07 (VHH)
VHH: QVQLVESGGGLVQAGGSLRLSCAASGRAFSSGTMGWFRQAPGKEREFVATISWSGGSTSYARSVKGRFTISGDNAENTVYLQMNSLKPEDTAVYYCYAVSSGSDYDGGMDYWGKGTLVTVSS
B9: Re11F11 (VHH)
VHH: QVQLVESGGGLVQPGGSLRLSCAASGFTFSNYHMSWYRQAPGKGRELVADITSGGDYTHYADSVKGRFTVSRDNPKNTLYLQMNSLKPEDTAVYHCHVRIFGPGFPVDYRGQGTQVTVSS
B10: Re11G09 (VHH)
VHH: QVQLVESGGGLVHTGGSLRLSCAASGSIFNIYRMAWYRQAPGKQREKVAIITTYGLTDYADSVKGRFTISRDNAKNTTYLQMNSLKPDDTAVYYCNTDPPDLGPGYWGQGTQVTVSS
B11: Re5D06R28D (VHH)
VHH: QVQLVESGGGLVQPGGSLRLSCAISGSTLDYYAMGWFREAPGKEREGVARWRNNDGSTNYADSVKGRFTMSRDNAKDTYYLQMNSLEPEDTADYYCAYGPLTKYGDEWHWPYEYDYWGQGTQVTVSS
B12: Re21B09 (VHH)
VHH: QVQLVESGGGLVQPGGSLRLSCAASGFTLDNYAIGWFRQAPGKEREGVSCIRSSDGSTYYADSVKGRFTISKDNAKNTVYLQMNSLKPEDTAVYYCATDGTFNPPCDDLYSWYFPERQGTQVTVSS
B13: Re22D04 (VHH)
VHH: QVQLVESGGGLVQTGGSLRLSCAASGRTFSDDAMGWFRQAPGKERDVVAALGWAGVSTYYADSVKGRFGISRDNAKNTVYLQMSSLKPEDTAVYYCAAAPSVAHARLGEWAYWGKGTQVTVSS
B14: Re25H10 (VHH)
VHH: QVQLVESGGGLVQPGGSLRLSCAASGFTFSSSAMSWARQAPGKGLEWVSTISEDGSTYYADSMKGRFTISRDNAKNTVYLQMNSLKPEDTAAYYCATSTEPRTVVAGWGDYLGQGTQVTVSS
B15: Re5B06 (VHH)
VHH: QVQLVESGGGLVQPGGSLRLSCAASGSIRSIYATVWFRQAPGKEHEWVGSITSSNVTTYADSVKGRFTISRDNAKKTVYLQMNSLKPEDTALYYCNVHFASEYSDYAQIQGQGTQVTVSS
B16: Re7A01 (VHH)
VHH: QVQLVESGGGLVQAGGSLRLSCAASGRTFSSYAMGWFRQAPGKEREFVATISFSGSTSYAGHVKGRFTISRDNAKNTVYLQMNSLKPEDTAVYYCHAVTRASDQDGGMDYWGQGTQVTVSS
B17: Re8C06 (VHH)
VHH: QVQLVESGGGLVQAGGSLRLSCAASGRTDTIYNMGWFRQAPGKEREFVAAISWSDGKTTFADSVKGRFTISRDNAKNTVYLQMNSLKPEDTANYYCAAKAFLVAGRSLEEYDYSGQGTQVTVSS
B18: Re8E12 (VHH)
VHH: QVQLVESGGGSVQPGGSLRLSCKVSGFTSDVDLRNYLVSWNRQAPGKERELVAAITPTVISGGNTNYADSVKGRFTISRDYSKSTVYLQMNSLNPEDTAVYYCKVGVYWGQGTQVTVSS
B19: Re8F03 (VHH)
VHH: B18 VHH with S11L, R19T, F27L, D30Y, N41Y, A44G, V59A, S61T, N64S, Y102S

molecular target: SARS-CoV-2 spike protein of the patient-derived virus strain (D614G) (SARS-CoV-2, UniProt P0DTC2); assay: not given

Binder	binding result
B1	binds
B2	binds
B3	binds
B4	binds
B5	binds
B6	binds
B7	binds
B8	binds
B9	binds
B10	binds
B11	binds
B12	binds
B13	binds
B14	binds
B15	binds
B16	binds
B17	binds
B18	binds
B19	binds

molecular target: SARS-CoV-2 spike protein (SARS-CoV-2, UniProt P0DTC2 14-1273); assay: IF, spike-transfected HeLa cells

Binder	binding result
B5	binds
